For at least one entry, the source does not settle the construct or the ends of the probe.
Molecular target: Wt TetR(B) in planta (Escherichia coli) (UniProt P04483)
Assay: activity in cells
Settings: N. benthamiana leaf, Renilla luciferase; fully induced at 2.0 ppm anhydrotetracycline; protein in cells

Protein sequences, listed by entry. Tags and fused reporters are not part of them. Chains listed by the source or under a name are the forms on record and can include a tag or linker. Residues count along the entry.
UniProt P04483, 2-207, tags left off: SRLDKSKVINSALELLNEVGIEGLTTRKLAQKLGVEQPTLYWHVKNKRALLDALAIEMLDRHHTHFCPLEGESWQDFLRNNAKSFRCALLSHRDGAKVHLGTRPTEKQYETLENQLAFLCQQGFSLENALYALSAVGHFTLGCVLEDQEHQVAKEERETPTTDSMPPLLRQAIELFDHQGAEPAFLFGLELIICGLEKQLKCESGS

GAAAATCTTCGTCAACATGGTGGAGCACGACACGCTTGTCTACTCCAAAAATATCAAAGATACAGTCTCAGAAGACCAAAGGGCAATTGAGACTTTTCAACAAAGGGTAATATCCGGAAACCTCCTCGGATTCCATTGCCCAGCTATCTGTCACTTTATTGTGAAGATAGTGGAAAAGGAAGGTGGCTCCTACAAATGCCATCATTGCGATAAAGGAAAGGCCATCGTTGAAGATGCCTCTGCCGACAGTGGTCCCAAAGATGGACCCCCACCCACGAGGAGCATCGTGGAAAAAGAAGACGTTCCAACCACGTCTTCAAAGCAAGTGGATTGATGTGATATCTCCACTGACGTAAGGGATGACGCACAATCCCACTAGACTCTATCAGTGATAGAGTGTATATAAGACTCTATCAGTGATAGAGTGAACTCTATCAGTGATAGAGTTGTACTTATTTTTACAACAATTACCAACAACAACAAACAACAAACAACATTACAATTACTATTTACAATTACAGTCGACGGATCAAGTGCAAAGGTCCGCCTTGTTTCTCCTCTGTCTCTTGATCTGACTAATCTTGGTTTATGATTCGTTGAGTAATTTTGGGGAAAGCTTCGTCCACAGTTTTTTTTTCGATGAACAGTGCCGCAGTGGCGCTGATCTTGTATGCTATCCTGCAATCGTGGTGAACTTATTTCTTTTATATCCTTCACTCCCATGAAAAGGCTAGTAATCTTTCTCGATGTAACATCGTCCAGCACTGCTATTACCGTGTGGTCCATCCGACAGTCTGGCTGAACACATCATACGATATTGAGCAAAGATCGATCTATCTTCCCTGTTCTTTAATGAAAGACGTCATTTTCATCAGTATGATCTAAGAATGTTGCAACTTGCAAGGAGGCGTTTCTTTCTTTGAATTTAACTAACTCGTTGAGTGGCCCTGTTTCTCGGACGTAAGGCCTTTGCTGCTCCACACATGTCCATTCGAATTTTACCGTGTTTAGCAAGGGCGAAAAGTTTGCATCTTGATGATTTAGCTTGACTATGCGATTGCTTTCCTGGACCCGTGCAGCTGCGGACGGATCC (double strand) [35SCaMV::tetOp promoter (three tet operators)]
activity on this sequence: 90 % repression

Reference: patent US20110287936
